Target: Stx2a A-subunit (Escherichia phage 933W, UniProt P09385)
Test: AlphaScreen competition assay: inhibition of binding between Stx2a A-subunit and biotinylated MMβA-mono
Design: species or system Escherichia coli
Settings: read-out: relative IC50 for inhibition of binding of MMβA-mono to the Stx2a A-subunit, biotinylated MMβA-mono 30 nM, Stx2a A-subunit 20 nM, room temperature, mean ± SE, n = 3

SMILES: CSCC[C@H](NC(=O)[C@H](C)NC(=O)[C@@H](N)CCSC)C(=O)N[C@@H](CCSC)C(=O)NCCC(=O)N[C@@H](CCCNC(=N)N)C(=O)N[C@@H](CCCNC(=N)N)C(=O)N[C@@H](CCCNC(=N)N)C(=O)N[C@@H](CCCNC(=N)N)C(=O)N[C@@H](C)C(N)=O
- IC50: 8.14 µM

— article PMC9259562, “A unique peptide-based pharmacophore identifies an inhibitory compound against the A-subunit of Shiga toxin” (Scientific Reports, 2022)
